pIC50: −log10 of the molar value.
Tests used:
HIV [1] = test: HIV infection in cell culture, syncytia formation in PBLs; format: cell-based; settings: read-out: IC50 [PBL]; HIV-infected normal human blood lymphocytes (PBLs); 50% suppression of virus-induced syncytia
Protocol: (§1) The HIV test was carried out with slight modifications by the method of Pauwels et al. [cf. Journal of Virological Methods 20, (1988), 309-321].
Normal human blood lymphocytes (PBLs) were enriched on Ficoll-Hypaque and stimulated in RPMI 1640, 20% foetal calf serum containing phytohaemagglutinin (90 μg/ml) and interleukin-2 (40 U/ml). For infection with the infectious HIV, PBLs were pelleted and the cell pellet was then suspended in 1 ml of HIV virus adsorption solution and incubated for 1 hour at 37° C.
The virus adsorption solution was centrifuged and the infected cell pellet taken up in growth medium so that a concentration of 1×10^5 cells per ml was established. The cells infected in such a way were pipetted at 1×10^4 cells/well into the wells of 96-well microtitre plates.
The first vertical row of the microtitre plate contained only growth medium and cells which had not been infected, but otherwise had been treated exactly as described above (cell control). The second vertical row of the microtitre plate contained only HIV-infected cells (virus control) in growth medium. The other wells contained the compounds according to the invention in different concentrations, starting from the wells of the 3rd vertical row of the microtitre plate, from which the test substances were diluted 2^10 times in steps of two.
The test batches were incubated at 37° C. until in the untreated virus control the syncytia formation typical of HIV occurred (between day 3 and 6 after infection), which was then assessed by microscopy.
(§2) The IC50 values were determined as the concentrations of the […] at which 50% (about 10 syncytia) of the virus-induced syncytia were suppressed by the treatment with the compound according to the invention.

HIV protease (HIV-1) = HIV protease (HIV-1) (Human immunodeficiency virus type 1 group M subtype B, UniProt P04585); test: HIV-specific protease enzyme test (RP-HPLC analysis of synthetic peptide cleavage); settings: read-out: IC50 (RP-HPLC) HIV-1, purified HIV protease, synthetic Gag cleavage-site peptide
Protocol: The results of the examples listed below were determined by the HIV test system described in the following references [cf. Hansen, J., Billich, S., Schulze, T., Sukrow, S. and Molling, K. (1988), EMBO Journal, Vol. 7, No. 6, pp. 1785-1791]: purified HIV protease was incubated with synthetic peptide which imitates a cleavage site in the Gag precursor protein and represents an in vivo cleavage site of the HIV protease. The resulting cleavage products of the synthetic peptide were analysed by means of reverse phase high performance liquid chromatography (RP-HPLC). The IC50 values given relate to the substance concentration which causes a 50% strength inhibition of the protease activity under the above-mentioned test conditions.

HIV [2] = test: HIV infection in cell culture, H-9 cells; format: cell-based; settings: read-out: IC50 [H-9]; HIV-infected H-9 cells
Protocol: as §1, §2

SMILES	pIC50 (HIV [1])	pIC50 (HIV protease (HIV-1))	pIC50 (HIV [2])
CC[C@H](C)[C@H](NC(=O)[C@H](C[C@H](O)[C@H](CC1CCCCC1)NC(=O)[C@@H](NC(=O)c1ccc2ccccc2n1)C1SCCS1)C(C)C)C(=O)NCc1ccccn1	5.30		
CC[C@H](C)[C@H](NC(=O)[C@H](Cc1ccccc1)C[C@H](O)[C@H](CC1CCCCC1)NC(=O)[C@@H](NC(=O)c1ccc2ccccc2n1)C1SCCS1)C(=O)NCc1ccccn1	> 6.40	7.10 to 7.80	
CC[C@H](C)[C@H](NC(=O)C(C[C@H](O)[C@H](CC1CCCCC1)NC(=O)[C@@H](NC(=O)c1cc2ccccc2[nH]1)C1SCCS1)C(C)C)C(=O)NCc1ccccn1 (stereo partly shown)	< 6.00	9.00 to 9.89	
CC[C@H](C)[C@H](NC(=O)[C@@H](C[C@H](O)[C@H](CC1CCCCC1)NC(=O)[C@@H](NC(=O)C1CCN(C(=O)c2ccccn2)CC1)C1SCCS1)C(C)C)C(=O)NCc1ccccn1	5.00	7.10 to 7.68	
C=CCC(C[C@H](O)[C@H](CC1CCCCC1)NC(=O)[C@@H](NC(=O)c1ccc2ccccc2n1)C1SCCS1)C(=O)N[C@H](C(=O)NCc1ccccn1)[C@@H](C)CC (stereo partly shown)	> 7.10	7.10 to 7.64	
CC[C@H](C)[C@H](NC(=O)[C@@H](C[C@H](O)[C@H](CC1CCCCC1)NC(=O)[C@@H](NC(=O)[C@H](Cc1ccccc1)CS(=O)(=O)C(C)(C)C)C1SCCS1)C(C)C)C(=O)NCc1ccccn1	6.00	9.00 to 9.85	
CC[C@H](C)[C@H](NC(=O)[C@H](C[C@H](O)[C@H](CC1CCCCC1)NC(=O)[C@@H](NC(=O)[C@H](Cc1ccccc1)CS(=O)(=O)C(C)(C)C)C1SCCS1)C(C)C)C(=O)NCc1ccccn1	5.30	7.10 to 7.17	
CC[C@H](C)[C@H](NC(=O)[C@@H](Cc1ccccc1)C[C@H](O)[C@H](CC1CCCCC1)NC(=O)[C@@H](NC(=O)c1ccc2ccccc2n1)C1SCCS1)C(=O)NCc1ccccn1	> 6.40	8.05 to 8.06	
CC[C@H](C)[C@H](NC(=O)[C@@H](C[C@H](O)[C@H](CC1CCCCC1)NC(=O)[C@@H](NC(=O)c1ccc2ccccc2n1)C1SCCS1)C(C)C)C(=O)NCc1ccccn1	7.30	9.96 to 10.19	7.42
CC[C@H](C)[C@H](NC(=O)[C@H](C[C@H](O)[C@H](CC1CCCCC1)NC(=O)[C@@H](NC(=O)C1CCN(C(=O)c2ccccn2)CC1)C1SCCS1)C(C)C)C(=O)NCc1ccccn1	5.00	8.05 to 8.17	
CC[C@H](C)[C@H](NC(=O)[C@@H](C[C@H](O)[C@H](CC1CCCCC1)NC(=O)[C@@H](NC(=O)[C@H](Cc1ccccc1)OC(=O)N(C)CCC(=O)N1CCOCC1)C1SCCS1)C(C)C)C(=O)NCc1ccccn1	6.40	8.05 to 8.72	

Source: patent US5424426A, “Dithiolanylglycine-containing HIV protease inhibitors of the hydroxyethylene isostere type” (Bayer Aktiengesellschaft, priority 1992, dated 1995)
